Measured values from several laboratories, pooled; numbers as filed in NIAID ChemDB.

All rows: tests in culture; agent: Varicella zoster virus; measure: EC50

An empty or dashed field is not shown.

compound | strain | cells | read by | result
O=c1[nH]c(=O)n([C@H]2C[C@H](O)[C@@H](CO)O2)cc1I | Kanno-Kohmura (TK-) | HEF | plaque count | 17 µg/mL
CC(NC(=S)Nc1ccc(NC(=O)c2ccccc2F)cc1)c1ccc(F)cc1 | JAB1233 | HFF | ELISA | 0.44 µg/mL
CCCCCCCCc1cc2cn([C@H]3C[C@H](O)[C@@H](CO)O3)c(=O)nc2o1 | 07 (TK-) | - | - | >50 µM
CC(O)c1cn([C@@H]2O[C@H](CO)[C@@H](O)[C@@H]2O)c(=S)[nH]c1=O | Kanno-Kohmura (TK-) | MRC-5 | plaque count | >263.5 µM
Nc1ccn(C[C@@H](CO)OCP(=O)(O)O)c(=O)n1 | Oka penciclovir-resistant/B | HEL | cytopathic effect | 0.48 µM
O=c1[nH]c(=O)n([C@@H]2O[C@H](CO)[C@@H](O)[C@@H]2O)cc1/C=C/Br | Kawaguchi acyclovir-resistant mutant A8 | - | plaque count | 0.000103 µg/mL
CC(O)c1cn([C@@H]2O[C@H](CO)[C@@H](O)[C@@H]2O)c(=S)nc1N | HOSEN (TK+) | MRC-5 | plaque count | 168.9 µM
O=c1[nH]c(=O)n([C@H]2C[C@H](O)[C@@H](CO)O2)cc1/C=C/I | KANNO | HEF | plaque count | 0.0005 µg/mL
C=Cc1cn([C@@H]2O[C@H](CO)[C@@H](O)[C@@H]2O)c(=S)[nH]c1=O | Kanno-Kohmura (TK-) | MRC-5 | plaque count | >266.3 µM
O=c1[nH]c(=O)n([C@H]2C[C@H](O)[C@@H](CO)O2)cc1/C=C/Br | CAQU | HEF | plaque count | 0.008 µg/mL
O=c1[nH]c(=S)n([C@@H]2O[C@H](CO)[C@@H](O)[C@@H]2O)cc1/C=C/Br | Kanno-Kohmura (TK-) | MRC-5 | plaque count | >213 µM
Cn1cc(C(=O)NCc2ccc(Cl)cc2)c(=O)c2cc(CN3CCOCC3)ccc21 | CO varicella isolate | HFF | plaque count | 0.5 µM
CCCc1cn([C@H]2C[C@H](O)[C@@H](CO)O2)c(=O)[nH]c1=O | VEX411 | HEF | cytopathic effect | 1 µg/mL
Nc1nc(N)c2ncn(CCOCP(=O)(O)O)c2n1 | Oka CF1743-resistant | HEL | cytopathic effect | 1.3 µM
O=C(NCc1ccc(Cl)cc1)c1c[nH]c2ccc(C#CCO)cc2c1=O | DIE | - | plaque count | 0.2 µM
Nc1nc2c(ncn2COC(CO)CO)c(=O)[nH]1 | Oka penciclovir-resistant/A | HEL | cytopathic effect | 0.39 µM
CCc1cn([C@H]2C[C@H](O)[C@@H](CO)O2)c(=S)nc1N | Kanno-Kohmura (TK-) | MRC-5 | plaque count | >288.6 µM
Nc1nc2c(ncn2CCC(CO)CO)c(=O)[nH]1 | Oka BVaraU-resistant | HEL | cytopathic effect | 64.8 µM
Cc1cn([C@H]2C[C@H](O)[C@@H](CO)O2)c(=S)[nH]c1=O | HOSEN (TK+) | MRC-5 | plaque count | 21.5 µM
O=C(O)P(=O)(O)O | Clinical isolate VZV-32 | HEL | cytopathic effect | 91.8 µM
C=Cc1cn([C@H]2C[C@H](O)[C@@H](CO)O2)c(=S)[nH]c1=O | CAQU (TK+) | MRC-5 | plaque count | 72.6 µM
Cc1cn([C@@H]2O[C@H](CO)[C@@H](O)[C@@H]2O)c(=O)[nH]c1=O | Kawaguchi acyclovir-resistant mutant A8 | - | plaque count | 0.0072 µg/mL

3 of the rows above, restated:

compound | strain | cells | read by | result
CC(O)c1cn([C@@H]2O[C@H](CO)[C@@H](O)[C@@H]2O)c(=S)[nH]c1=O | Kanno-Kohmura (TK-) | MRC-5 | plaque count | >263.5 µM
Nc1ccn(C[C@@H](CO)OCP(=O)(O)O)c(=O)n1 | Oka penciclovir-resistant/B | HEL | cytopathic effect | 0.48 µM
O=C(O)P(=O)(O)O | Clinical isolate VZV-32 | HEL | cytopathic effect | 91.8 µM

ECn is the concentration giving n% inhibition of infection, replication or growth. Conditions beyond the fields shown may differ between rows.